Anti-infective test results gathered from many reports (values: NIAID ChemDB through PubChem).

Shared fields: tests in culture; agent: Candida albicans; read-out: EC50

An empty or dashed field is not shown. ECn is the concentration giving n% inhibition of infection, replication or growth. Rows are shuffled and stem from different studies. Two numbers with a dash give a range or band.

compound	strain or isolate	value
C[C@H]1OO[C@@H](CC(=O)OCC2[C@H]3C[C@@H]4C[C@H](C3)C(Br)[C@H]2C4)[C@@H]2O[C@@H]21	-	>1000 µM
C[C@]1(N)CCC[C@H]1C(=O)O	-	64 µg/mL
C[C@H]1C=C(C2C3CC4CC(C3)CC2C4)COO1	-	63–125 µM
C=C1C[C@@H](C(=O)O)[C@H]1N	-	>256 µg/mL
O=C1N2C3C(=COC=CC3O)CC23SSC12CC1=COC=CC(O)C1N2C3=O	E83	2.5 µg/mL
N[C@H]1CCCC[C@H]1C(=O)O	-	128 µg/mL
CC(C)(C)C1CCC(CN2C3=NC[C@@H](C4CCCCC4)N3C[C@H]2CC2CCCCC2)CC1	ATCC 10231	6.6 µg/mL
c1ccc([Se][Se]c2ccccc2)cc1	-	2–10 µM
N[C@H]1CCS[C@H]1C(=O)O	-	>256 µg/mL
C[C@@H]1C=CC(CC(=O)OC2C3CC4CC(C3)CC2C4)OO1	-	125–250 µM
CCN1C2=NC[C@H](Cc3ccccc3)N2C[C@H]1CC1CCCCC1	ATCC 10231	>64 µg/mL
COc1ccc([Se][Se]c2ccc(OC)cc2)cc1	-	2–10 µM
C1CCC(C[C@@H]2CN3C(=NC[C@H]3C3CCCCC3)N2CCC23CC4CC(CC(C4)C2)C3)CC1	ATCC 10231	23.8 µg/mL
C=C1CC[C@H](N)[C@H](C(=O)O)C1	-	>256 µg/mL
CC(C)(C)C1CCC(CN2C3=NC[C@H](Cc4ccccc4)N3C[C@@H]2Cc2ccccc2)CC1	ATCC 10231	50.6 µg/mL
C[C@@H]1C=CC(CC(=O)OCC2C3CC4CC(C3)CC2C4)OO1	-	125–250 µM
CCN1C2=NC[C@H](CC3CCCCC3)N2C[C@@H]1Cc1ccccc1	ATCC 10231	>64 µg/mL
C1C2CC3CC1CC(C2)C3C[C@H]1OOC[C@@H]2O[C@@H]21	-	125–250 µM

Repeating the first 2 entries:

{"compound": "C[C@H]1OO[C@@H](CC(=O)OCC2[C@H]3C[C@@H]4C[C@H](C3)C(Br)[C@H]2C4)[C@@H]2O[C@@H]21", "value": ">1000 µM"}
{"compound": "C[C@]1(N)CCC[C@H]1C(=O)O", "value": "64 µg/mL"}